Reference: paper PMC9770395 (PLOS Neglected Tropical Diseases, 2022)
Like-named read-outs stand apart in the source and are kept apart here.

Experiments:
[1] = system: CT- and STa-stimulated Cl^- secretion in T84 cell monolayers; test: cells; format: cell-based; conditions: Homo sapiens

With `CC[C@H](C)C(=O)O[C@H]1C[C@@H](C)C=C2C=C[C@H](C)[C@H](CC[C@@H]3CC=CC(=O)O3)[C@H]21` [DHLV, α,β-dehydrolovastatin] the “Effect on FITC-dextran flux (barrier integrity)” value (T84 cell monolayers) was “no effect”, the inhibition at 20 µM ([1]; read-out: Inhibition of CT-induced ISC) was > 90% and the inhibition at 20 µM ([1]; read-out: Inhibition of STa-induced ISC) was > 90%. For the same molecule, the “Effect on cell viability (MTT)” value (T84 cells) was “did not affect cell viability”.
